PubChem BioAssay AID1259414, Drosophila RNAi Screening Center, 2018
In all, the deposit lists about 24,000 reagents; shown is a random part of those with a known target gene and a result. In the full data, about 1,210 (5%) were called active. 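Inactive calls also include excluded dsRNAs with several or no targets, genes unexpressed in JW18, and well A1, regardless of score.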 A plus sign joins genes that one reagent is predicted to hit. No sequences are given here.

Purpose: 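Fly genes that alter Wolbachia amount inside host cells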 (primary screen)
Cells: Drosophila JW18 cells infected with Wolbachia
Reagent: long dsRNA against Drosophila genes, 0.25 µg dsRNA per well of a 384-well plate
Duration: 5 days
Challenge: cells persistently infected with Wolbachia before knock-down; no added drug
Measured: 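Automated imaging of bacterial rRNA staining divided by host cell count, reported as plate-normalised robust z-score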
Scale: Wolbachia per cell robust z: higher = more Wolbachia per host cell than the plate typical
Hit rule: 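Active if absolute robust z reaches 1.5 in two or more of three replicates, leaving out multi- or no-target dsRNAs, genes unexpressed in JW18 and A1 wells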

Against Mco3 (Multicopper oxidase 3) [SID104195718] the deposit lists Wolbachia per cell robust z, rep 1 = 0.513; Wolbachia per cell robust z, rep 2 = -2.1; Wolbachia per cell robust z, rep 3 = -0.881; inactive.
awd (abnormal wing discs) [SID104196698] showed Wolbachia per cell robust z, rep 1 = -4.84; Wolbachia per cell robust z, rep 2 = -1.39; Wolbachia per cell robust z, rep 3 = -0.499; inactive.
awd (abnormal wing discs) [SID104218301] showed Wolbachia per cell robust z, rep 1 = -0.409; Wolbachia per cell robust z, rep 2 = -0.17; Wolbachia per cell robust z, rep 3 = 0.749; inactive.
For RpL37-2 (Ribosomal protein L37-2) [SID104184376] the deposit lists Wolbachia per cell robust z, rep 1 = 0.144; Wolbachia per cell robust z, rep 2 = -5.74; Wolbachia per cell robust z, rep 3 = -2.49; inactive.
polo [SID104191176] showed Wolbachia per cell robust z, rep 1 = -4.03; Wolbachia per cell robust z, rep 2 = -2.21; Wolbachia per cell robust z, rep 3 = -0.00529; active.
After knock-down of polo [SID104201850], the screen gave Wolbachia per cell robust z, rep 1 = 1.09; Wolbachia per cell robust z, rep 2 = 0.373; Wolbachia per cell robust z, rep 3 = 0.617; inactive.
polo [SID104216519] gave Wolbachia per cell robust z, rep 1 = -0.207; Wolbachia per cell robust z, rep 2 = -0.463; Wolbachia per cell robust z, rep 3 = 0.162; inactive.
CREG (Cellular Repressor of E1A-stimulated Genes) [SID104196387] showed Wolbachia per cell robust z, rep 1 = -1.94; Wolbachia per cell robust z, rep 2 = -1.04; Wolbachia per cell robust z, rep 3 = -1.8; inactive.
Against CG6310 [SID104190411], the entry reads Wolbachia per cell robust z, rep 1 = 0.443; Wolbachia per cell robust z, rep 2 = -5.34; Wolbachia per cell robust z, rep 3 = -0.579; inactive.

2 of these entries, set out differently.
Gene | PubChem SID | Wolbachia per cell robust z, rep 1 | Wolbachia per cell robust z, rep 2 | Wolbachia per cell robust z, rep 3 | Outcome
CREG (Cellular Repressor of E1A-stimulated Genes) | SID104196387 | -1.94 | -1.04 | -1.8 | inactive
CG6310 | SID104190411 | 0.443 | -5.34 | -0.579 | inactive

Additional results follow:
Against CG9577 [SID104200485], the values are Wolbachia per cell robust z, rep 1 = -0.705; Wolbachia per cell robust z, rep 2 = 0.517; Wolbachia per cell robust z, rep 3 = -0.212; inactive.
With knock-down of CG9577 [SID104206235], the record shows Wolbachia per cell robust z, rep 1 = -0.617; Wolbachia per cell robust z, rep 2 = -0.665; Wolbachia per cell robust z, rep 3 = -1.11; inactive.
Against CG31437 [SID104193503] the deposit lists Wolbachia per cell robust z, rep 1 = 0.049; Wolbachia per cell robust z, rep 2 = -0.789; Wolbachia per cell robust z, rep 3 = 0.728; inactive.
Against Rab9Fa + Rab9E + Rab9Db + 1 more [SID104205847] the deposit lists Wolbachia per cell robust z, rep 1 = -5.23; Wolbachia per cell robust z, rep 2 = 0.654; Wolbachia per cell robust z, rep 3 = 0.29; inactive.
For CG33337 [SID104193424], the values are Wolbachia per cell robust z, rep 1 = 0.12; Wolbachia per cell robust z, rep 2 = -0.3; Wolbachia per cell robust z, rep 3 = -0.221; inactive.
CG33337 [SID104205544] showed Wolbachia per cell robust z, rep 1 = -6.06; Wolbachia per cell robust z, rep 2 = 0.986; Wolbachia per cell robust z, rep 3 = -0.647; inactive.
Tektin-A (Tektin A) [SID104181713] scored Wolbachia per cell robust z, rep 1 = -0.469; Wolbachia per cell robust z, rep 2 = -0.344; Wolbachia per cell robust z, rep 3 = -1.17; inactive.
Knock-down of CG14414 [SID104199391] gave: Wolbachia per cell robust z, rep 1 = -4; Wolbachia per cell robust z, rep 2 = -2.35; Wolbachia per cell robust z, rep 3 = -0.157; active.
After knock-down of S6kII (Ribosomal protein S6 kinase II) [SID104200437], the record shows Wolbachia per cell robust z, rep 1 = 0.65; Wolbachia per cell robust z, rep 2 = 0.189; Wolbachia per cell robust z, rep 3 = 0.37; inactive.
With knock-down of CG7656 [SID104190692], the record shows Wolbachia per cell robust z, rep 1 = 0.0898; Wolbachia per cell robust z, rep 2 = 1.49; Wolbachia per cell robust z, rep 3 = 0.107; inactive.
For Sfp35C (Seminal fluid protein 35C) [SID104218199], the entry reads Wolbachia per cell robust z, rep 1 = 0.0695; Wolbachia per cell robust z, rep 2 = -0.309; Wolbachia per cell robust z, rep 3 = 0.692; inactive.
Silencing of DENR (Density regulated protein) [SID104199943] gave: Wolbachia per cell robust z, rep 1 = -0.243; Wolbachia per cell robust z, rep 2 = 1.37; Wolbachia per cell robust z, rep 3 = -1.72; inactive.
CG33773 [SID104216381] gave Wolbachia per cell robust z, rep 1 = 1.15; Wolbachia per cell robust z, rep 2 = -0.145; Wolbachia per cell robust z, rep 3 = 1.49; inactive.
Against CG42692 [SID104218084] the deposit lists Wolbachia per cell robust z, rep 1 = 0.167; Wolbachia per cell robust z, rep 2 = 0.576; Wolbachia per cell robust z, rep 3 = 1.2; inactive.
Against CG34041 [SID104201796] the deposit lists Wolbachia per cell robust z, rep 1 = 0.616; Wolbachia per cell robust z, rep 2 = -1.1; Wolbachia per cell robust z, rep 3 = 1.16; inactive.
Silencing of CG34041 [SID104208567] gave: Wolbachia per cell robust z, rep 1 = 0.998; Wolbachia per cell robust z, rep 2 = -0.802; Wolbachia per cell robust z, rep 3 = -0.0358; inactive.
